The structures given here were assigned with low confidence; some may be wrong.
Key:
[1] = target: HCV NS3/4A protease complex, BMS strain (genotype 1a) (UniProt P27958, C1454S/C1711G, species not given/STRAIN_BMS); assay: Recombinant HCV NS3/4A protease complex FRET peptide assay, BMS strain; format: biochemical; settings: NS3/4A BMS strain; activity range symbols
Text: Recombinant HCV NS3/4A Protease Complex FRET Peptide Assay
The purpose of this in vitro assay was to measure the inhibition of HCV NS3 protease complexes, derived from the BMS strain, H77C strain or J416S strain, as described below, by compounds of the present invention. This assay provides an indication of how effective compounds of the present invention would be in inhibiting HCV proteolytic activity.
Serum from an HCV-infected patient was obtained from Dr. T. Wright, San Francisco Hospital. An engineered full-length cDNA (compliment deoxyribonucleic acid) template of the HCV genome (BMS strain) was constructed from DNA fragments obtained by reverse transcription-PCR (RT-PCR) of serum RNA (ribonucleic acid) and using primers selected on the basis of homology between other genotype 1a strains. From the determination of the entire genome sequence, a genotype 1a was assigned to the HCV isolate according to the classification of Simmonds et al. (See P Simmonds, K A Rose, S Graham, S W Chan, F McOmish, B C Dow, E A Follett, P L Yap and H Marsden, J. Clin. Microbiol., 31(6), 1493–1503 (1993)). […]

Chains of the proteins cited; added tags and fusions are not shown. Lines headed by an entry give the natural chain unless they say otherwise; changes in a name come on top. Residues count along the entry.
UniProt P27958, 1027-1657 C1454S limits assumed, stated change not applied: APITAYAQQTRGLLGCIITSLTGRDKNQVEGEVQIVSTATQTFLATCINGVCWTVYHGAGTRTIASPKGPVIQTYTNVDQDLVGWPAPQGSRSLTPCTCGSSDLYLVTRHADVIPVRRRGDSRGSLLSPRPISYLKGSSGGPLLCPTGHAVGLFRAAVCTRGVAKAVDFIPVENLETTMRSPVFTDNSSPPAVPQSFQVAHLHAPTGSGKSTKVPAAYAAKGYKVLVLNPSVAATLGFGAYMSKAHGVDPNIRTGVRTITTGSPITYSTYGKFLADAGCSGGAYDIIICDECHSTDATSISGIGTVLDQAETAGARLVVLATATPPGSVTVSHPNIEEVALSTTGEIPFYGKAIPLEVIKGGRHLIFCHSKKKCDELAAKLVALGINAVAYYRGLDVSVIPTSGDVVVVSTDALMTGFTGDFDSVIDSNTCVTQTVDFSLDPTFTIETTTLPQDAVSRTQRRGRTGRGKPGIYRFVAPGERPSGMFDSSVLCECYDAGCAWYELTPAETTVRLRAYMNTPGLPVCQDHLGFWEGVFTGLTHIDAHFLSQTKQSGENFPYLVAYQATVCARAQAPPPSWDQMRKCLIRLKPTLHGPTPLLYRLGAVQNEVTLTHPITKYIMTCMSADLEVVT

[2] = system: HCV replicon (HCV 1b-377-neo replicon cells, Huh7); assay: HCV replicon cell-based FRET assay; settings: activity range symbols
Experimental: HCV Replion assays were utilized in the present invention, and were prepared, conducted and validated as follows:
An HCV replicon whole cell system was established as described by Lohmann V, Korner F, Koch J, Herian U, Theilmann L, Bartenschlager R., Science 285(5424): 110–3 (1999). This system enabled us to evaluate the effects of our HCV Protease compounds on HCV RNA replication. Briefly, using the HCV strain 1B sequence described in the Lohmann paper (Assession number: AJ238799), an HCV cDNA was synthesized by Operon Technologies, Inc. (Alameda, Calif.), and the full-length replicon was then assembled in plasmid pGem9zf(+) (Promega, Madison, Wis.) using standard molecular biology techniques. […]
Huh7 cells, constitutively expressing the HCV replicon, were grown in Dulbecco's Modified Eagle Media (DMEM) containing 10% Fetal calf serum (FCS) and 1 mg/ml G418 (Gibco-BRL). […] After 4 days, cells were first assessed for cytotoxicity using alamar Blue (Trek Diagnotstic Systems) for a CC50 reading. The toxicity of compound (CC50) was determined by adding 1/10th volume of alamar Blue to the media incubating the cells. After 4 hr, the fluorescence signal from each well was read, with an excitation wavelength at 530 nm and an emission wavelength of 580 nm, using the Cytofluor Series 4000 (Perspective Biosystems). […]

`CCC1(S(=O)(=O)NC(=O)[C@@]23C[C@H]2/C=C\CCCCC[C@H](NC(=O)OC(C)(C)C)C(=O)N2C[C@H](Oc4nccc5ccccc45)C[C@H]2C(=O)N3)CC1` gave an IC50 [1] of less than 50 nM and an EC50 [2] of less than 50 nM.
